Pooled drug test results. Numbers come from NIAID ChemDB, via PubChem.

Shared fields: growth or infection tests; species: Mycobacterium tuberculosis

Rows are shuffled and stem from different studies. MIC bound comes from a single tested concentration. Fold resistance has wild type as its base. ECn is the concentration giving n% inhibition of infection, replication or growth. An empty or dashed field is not shown. Inhibition is in % at the dose shown (toxicity tests: loss of growth or viability).

smiles,strain or isolate,cells,mutations,dose,conditions,measure,read by,result
NNC(=O)c1ccncc1,Clinical isolate,-,INH resistant,-,-,MIC,resazurin,>12.5 µg/mL
COc1ccccc1/C=N/N=c1\scc(-c2cc3cc(Br)ccc3oc2=O)n1Cc1ccccc1,H37Rv,-,-,-,-,MIC,-,>6.25 µg/mL
Cc1ccc([N+](=O)[O-])cc1NC(=O)COc1ccc([N+](=O)[O-])c(F)c1,H37Rv,-,-,-,-,MIC,broth dilution,64 µg/mL
COc1cc(/C=N/N=c2\scc(-c3cc4cc(Br)ccc4oc3=O)n2Cc2ccccc2)ccc1O,H37Rv,-,-,-,-,MIC,-,>6.25 µg/mL
CCCCCCCNc1cnc(C(=O)NCc2ccccc2)cn1,H37Rv,-,-,-,-,MIC,resazurin,3.13 µg/mL
C/C(=N/NC(=S)N1CCN(c2ccccc2)CC1)c1cnccn1,H37Rv,-,-,6.25 µg/mL,-,inhibition,resazurin,68%
CCCCCCCC(=O)Oc1ccc2c(c1)[nH]c1c(C)nccc12,H37Rv,-,-,-,-,EC50,-,>6.25 µg/mL
CN1C(=O)C23CCCN2C(=O)C1(C)SC(=N)S3,H37Rv,-,-,12.5 µg/mL,-,inhibition,BACTEC,-16%
Cc1ccc2c(c1)c(N=NC(=S)Nc1ccc([N+](=O)[O-])cc1)c(O)n2C,H37Rv,-,-,-,-,EC90,broth dilution / resazurin,>100 µg/mL
CCCCCCCCO[C@@H]1O[C@H]([C@@H](CO)O[C@H]2O[C@H](CO)[C@@H](O)[C@@H]2O)[C@H](O)[C@H]1O,H37Ra,-,-,-,-,MIC,-,>128 µg/mL
O=c1oc2ccccc2cc1-c1cs/c(=N\N=C\c2cc(Br)ccc2O)n1Cc1ccccc1,H37Rv,-,-,6.25 µg/mL,-,inhibition,-,<11%
CCCc1cnc(C(=O)/C=C/c2ccccc2F)cn1,H37Rv,-,-,-,-,MIC,absorbance,12.5 µg/mL
COc1c(O)ccc2c1c[n+](C)c1c3cc4c(cc3ccc21)OCO4,H37Rv,-,-,12.5 µg/mL,-,inhibition,BACTEC,77%
CC(=O)Oc1ccc2c(c1)[nH]c1c(C)nccc12,H37Rv,-,-,-,-,EC50,-,>6.25 µg/mL
CN(C)C1C(=O)C(C(N)=O)=C(O)C2(O)C(=O)C3=C(O)c4c(O)ccc(Cl)c4[C@](C)(O)[C@@H]3C[C@H]12.[Cl][Sb]([Cl])[Cl],H37Rv,-,-,-,-,MIC bound,BACTEC,>12.5 µg/mL
CO[C@H]1/C=C/O[C@@]2(C)Oc3c(C)c(O)c4c(O)c(c(/C=N/N5CCN(C)CC5)c(O)c4c3C2=O)NC(=O)/C(C)=C\C=C\[C@H](C)[C@H](O)[C@@H](C)[C@@H](O)[C@@H](C)[C@H](OC(C)=O)[C@@H]1C,26 isolates drug-susceptible,-,-,-,-,MIC,-,1 µg/mL
C/C(=N\NS(=O)(=O)c1ccc(C)cc1)c1c(O)cc(C)oc1=O,H37Rv,-,-,12.5 µg/mL,-,inhibition,BACTEC,1%
O=C(CCc1ccc(F)cc1)c1ccc(Oc2ccccc2)c(O)c1,H37Rv,-,-,-,-,MIC,resazurin,10 µg/mL
CCOc1cc(/C=N/N=c2\scc(-c3cc4ccccc4oc3=O)n2Cc2ccccc2)ccc1O,H37Rv,-,-,6.25 µg/mL,-,inhibition,-,<11%
CCCCc1cnc(C(=O)/C=C/c2ccccc2Br)cn1,H37Rv,-,-,-,-,MIC,absorbance,25 µg/mL
c1cc2c(s1)CCOC21CCN(Cc2ccc3c(c2)OCCO3)CC1,H37Rv,-,MmpL3: Val713Met,-,-,fold resistance,fluorescence,125
CC(=O)Nn1cnc2c(Nc3ccccc3)ncnc2c1=N,H37Rv,-,-,-,-,EC90,-,>100 µg/mL
Cc1ccc2oc(=O)n(-c3ccc(F)cc3)c(=S)c2c1,My 331/88,-,-,-,14 d,MIC,-,4 µM
COc1ccc(/C=N/N=c2\scc(-c3cc4cc(Br)ccc4oc3=O)n2Cc2ccccc2)cc1OC,H37Rv,-,-,-,-,MIC,-,>6.25 µg/mL
COC(=O)c1ccc(Cc2ccc(C(=O)OC)o2)o1,H37Rv,-,-,12.5 µg/mL,-,inhibition,BACTEC,18%
CCC(CO)NCC[C@H]1O[C@H](O[C@H]2O[C@H](CCNC(CC)CO)[C@@H](O)[C@H](O)[C@H]2O)[C@H](O)[C@@H](O)[C@@H]1O,H37Ra,-,-,-,-,MIC,-,>128 µg/mL
COc1ccc(/C=N/N=c2\scc(-c3cc4ccccc4oc3=O)n2Cc2ccccc2)cc1,H37Rv,-,-,6.25 µg/mL,-,inhibition,-,<11%
Cc1ccc(C(=O)Nn2c(C)ccc2C)cc1,Erdman,-,-,-,-,MIC,-,>8 µg/mL
COc1cc2c(c(OC)c1OC)CC1c3c(cc4c(c3-2)OCO4)CCN1C,H37Rv,-,-,-,-,MIC,BACTEC,≥12.5 µg/mL
CC(C)(C)c1cnc(C(=O)/C=C/c2ccc(F)cc2)cn1,H37Rv,-,-,-,-,MIC,absorbance,>25 µg/mL
Cc1ccc(CCC(=O)c2ccc(Oc3ccccc3)c(O)c2)cc1,H37Rv,-,-,-,-,MIC,resazurin,15 µg/mL
COc1ccc2oc(=S)n(-c3ccc(Cl)cc3)c(=S)c2c1,My 331/88,-,-,-,21 d,MIC,-,16 µM
CCC(CO)NC[C@H]1O[C@H](CO)[C@@H](O)[C@@H]1O,H37Ra,-,-,-,-,MIC,-,>128 µg/mL
O=c1oc2ccccc2cc1-c1cs/c(=N\N=C\c2cc([N+](=O)[O-])ccc2O)n1Cc1ccccc1,H37Rv,-,-,-,-,MIC,-,>6.25 µg/mL
CCCCCC(=O)Oc1ccc2c(c1)[nH]c1c(C)nccc12,H37Rv,-,-,-,-,EC50,-,>6.25 µg/mL
Oc1c(N=NC(=S)Nc2ccc(Br)cc2)c2cc(OC(F)(F)F)ccc2n1CN1CCOCC1,H37Rv,-,-,-,-,EC50,broth dilution / resazurin,2.55 µg/mL
CCC12OC(COc3ccccc3)CN1CCN2c1ccccc1,H37Rv,-,-,12.5 µg/mL,-,inhibition,BACTEC,-10%
CCOc1ccc2c(c[n+](C)c3c4cc5c(cc4ccc23)OCO5)c1OC,H37Rv,-,-,12.5 µg/mL,-,inhibition,BACTEC,100%
CCC(CO)NC[C@@H]1N[C@H](CO)[C@@H](O)[C@@H]1O,H37Ra,-,-,-,-,MIC,-,>128 µg/mL
OC[C@H]1O[C@@H](c2ccc(OCc3ccccc3)cc2OCc2ccccc2)[C@H](O)[C@@H]1O,H37Rv,-,-,-,-,MIC bound,BACTEC,>12.5 µg/mL
C[n+]1cc2cc3c(cc2c2ccc4cc5c(cc4c21)OCO5)OCO3,H37Rv,-,-,12.5 µg/mL,-,inhibition,BACTEC,98%
COc1ccc(Nc2ncnc3c(=N)n(NC(=O)c4ccncc4)cnc23)cc1,H37Rv,-,-,-,-,EC90,-,4.22 µg/mL
C=CCNC(=S)N=Nc1c(O)n(CN2CCOCC2)c2ccc(OC(F)(F)F)cc12,H37Rv,-,-,-,-,EC90,broth dilution / resazurin,>100 µg/mL
CC(C)CCC[C@@H](C)CCC[C@@H](C)CCCC(C)CCO,H37Rv,-,-,-,-,MIC,-,2 µg/mL
CCOC(=O)c1cc(NC(C)=O)c(C)n1C,H37Rv,-,-,6.25 µg/mL,-,inhibition,resazurin,2%
O=C(/C=C/c1ccccc1Cl)c1cnccn1,H37Rv,-,-,-,-,MIC,absorbance,6.25 µg/mL
Cc1ccc(/C=N/N=c2\scc(-c3cc4cc(Br)ccc4oc3=O)n2Cc2ccccc2)cc1,H37Rv,-,-,-,-,MIC,-,>6.25 µg/mL
C/C(O)=C(\C=N\C(=S)Nc1cccc(C(F)(F)F)c1)C(=O)Nc1ccccc1C,H37Rv,-,-,-,-,MIC bound,resazurin,>6.25 µg/mL
CCCc1cnc(C(=O)/C=C/c2ccccc2Br)cn1,H37Rv,-,-,-,-,MIC,absorbance,12.5 µg/mL
O=C(Nc1cccc([N+](=O)[O-])c1)/C(=N/NC(=O)c1ccncc1)c1nc2ccc([N+](=O)[O-])cc2[nH]c1=O,H37Rv,VERO,-,-,-,MIC,-,3.64 µg/mL
CNC(C)C1CC[C@@H](N)[C@@H](O[C@H]2[C@H](O)[C@@H](OC3OC[C@](C)(O)[C@H](NC)[C@H]3O)[C@H](N)C[C@@H]2N)O1,MC2 6230,-,-,-,-,MIC,resazurin,4 µM
COc1ccc(Nc2ncnc3c(=N)n(NC(C)=O)cnc23)cc1,H37Rv,-,-,-,-,EC90,-,>100 µg/mL
Cc1ccc(C)n1NC(=O)c1ccc([N+](=O)[O-])cc1,Erdman,-,-,-,-,MIC,-,32 µg/mL
COc1cc2c(c3c1c[n+](C)c1c4cc5c(cc4ccc31)OCO5)OCO2,H37Rv,-,-,12.5 µg/mL,-,inhibition,BACTEC,93%
COC(=O)CCc1cc(=O)oc2ccc3cc(CC(=O)OC)oc3c12,H37Rv,-,-,6.25 µg/mL,-,inhibition,BACTEC,0%
Oc1cc(C(O)CCc2ccc(F)cc2)ccc1Oc1ccccc1,H37Rv,-,-,-,-,MIC,resazurin,4 µg/mL
O=C(/C=C/c1ccc(F)cc1)c1cnccn1,H37Rv,-,-,-,-,MIC,absorbance,25 µg/mL
CCCCC(=O)Oc1ccc2c(c1)[nH]c1c(C)nccc12,H37Rv,-,-,-,-,EC50,-,>6.25 µg/mL
O=c1oc2ccc(F)cc2c(=S)n1-c1ccc(Cl)c(Cl)c1,My 331/88,-,-,-,21 d,MIC,-,1 µM
CCCc1cnc(C(=O)/C=C/c2ccc(Cl)cc2)cn1,H37Rv,-,-,-,-,MIC,absorbance,25 µg/mL
Cc1ccc2[nH]c(O)c(N=NC(=S)Nc3ccccc3)c2c1,H37Rv,-,-,-,-,EC90,broth dilution / resazurin,1.433 µg/mL
Cl.Cl.FC(F)(F)c1ccc2c(c1)N(CCCN1CCN(CCOc3ccccc3)CC1)c1ccccc1S2,H37Rv,-,-,-,-,MIC bound,BACTEC,≤12.5 µg/mL
Oc1c(N=NC(=S)Nc2ccc(Cl)cc2)c2cc(OC(F)(F)F)ccc2n1CN1CCOCC1,H37Rv,-,-,-,-,EC50,broth dilution / resazurin,2.468 µg/mL
Oc1cc(C(O)CCc2ccccc2)ccc1Oc1ccccc1,Clinical isolate,-,MDR,-,-,MIC,resazurin,>12.5 µg/mL
CS(=O)(=O)C12CCCN1C(=O)C1CCCN1C2=O,H37Rv,-,-,6.25 µg/mL,-,inhibition,resazurin,11%
CC(C)Cc1cnc(C(=O)/C=C/c2ccccc2Br)cn1,H37Rv,-,-,-,-,MIC,absorbance,>100 µg/mL
S=C(S)NNc1ccccc1,INH-r,-,-,-,-,MIC,-,>12.5 µg/mL
CC(C)(C)c1cnc(C(=O)/C=C/c2ccc(Cl)cc2)cn1,H37Rv,-,-,-,-,MIC,absorbance,>50 µg/mL
COc1ccc(-c2cc(=O)c3c(OC)c(-c4cc(OC)ccc4C4CC(=O)c5c(OC)cc(OC)cc5O4)c(OC)cc3o2)cc1,-,-,-,12.5 µg/mL,-,inhibition,-,1%
O=C(CCCCC(=O)N/N=C/c1ccco1)N/N=C/c1ccco1,H37Rv,-,-,12.5 µg/mL,-,inhibition,BACTEC,12%
CCC(CO)NC[C@H]1N[C@@H](CO)[C@@H](O)[C@@H]1O,H37Ra,-,-,-,-,MIC,-,>128 µg/mL
CCC1C(OC)=CC2(CC)CC1(OC)OC2=O,H37Rv,-,-,12.5 µg/mL,-,inhibition,BACTEC,35%
O=C1CC(c2ccccc2)Oc2cc(-c3cccc(-c4cc(=O)c5ccccc5o4)c3)ccc21,-,-,-,12.5 µg/mL,-,inhibition,-,0%
CC1CN(c2c(F)cc3c(=O)c(C(=O)O)cn(C4CC4)c3c2O)CCN1.[Cl][Rh]([Cl])[Cl],ATCC 27294,-,-,-,-,MIC,-,0.8 µg/mL
COc1c(OCc2ccccc2)ccc2c1c[n+](C)c1c3cc4c(cc3ccc21)OCO4,H37Rv,-,-,12.5 µg/mL,-,inhibition,BACTEC,100%
CCNC(=S)N=Nc1c(O)n(C)c2ccc(C)cc12,H37Rv,-,-,-,-,EC50,broth dilution / resazurin,>100 µg/mL
Cc1[nH]c(=O)nc2[nH][nH]c(=O)c12,H37Rv,-,-,-,-,MIC bound,BACTEC,>12.5 µg/mL
COc1cc2c[n+](C)c3c4cc(OC)c(OC(C)C)cc4ccc3c2cc1OC,H37Rv,-,-,-,-,MIC,BACTEC,<12.5 µg/mL
CCOC(=O)/C=C/C(=O)N1CCN(C(=O)/C=C/C(=O)OCC)C(C)C1,H37Rv,-,-,-,-,MIC bound,BACTEC,>12.5 µg/mL
Oc1cc(C(O)CCc2ccc(Cl)cc2)ccc1Oc1ccccc1,Clinical isolate,-,MDR,-,-,MIC,resazurin,>12.5 µg/mL
C[C@@H]1[C@H]2C[C@@H](C[C@H]1NCCNC1CCCCCCC1)C2(C)C,-,-,-,-,-,MIC,-,12.5 µg/mL
CC(=O)NNc1nc(C)cc(=O)[nH]1,H37Rv,-,-,-,-,MIC,BACTEC,≥12.5 µg/mL
Oc1[nH]c2ccc(OC(F)(F)F)cc2c1N=NC(=S)Nc1ccc(Cl)cc1,H37Rv,-,-,-,-,EC90,broth dilution / resazurin,1.521 µg/mL
C/C(=C\CO)CCC[C@H](C)CCC[C@H](C)CCCC(C)C,H37Rv,-,-,-,-,MIC,-,2 µg/mL

Repeating the final 8 entries:

smiles	strain or isolate	cells	mutations	dose	conditions	measure	read by	result
Cc1[nH]c(=O)nc2[nH][nH]c(=O)c12	H37Rv	-	-	-	-	MIC bound	BACTEC	>12.5 µg/mL
COc1cc2c[n+](C)c3c4cc(OC)c(OC(C)C)cc4ccc3c2cc1OC	H37Rv	-	-	-	-	MIC	BACTEC	<12.5 µg/mL
CCOC(=O)/C=C/C(=O)N1CCN(C(=O)/C=C/C(=O)OCC)C(C)C1	H37Rv	-	-	-	-	MIC bound	BACTEC	>12.5 µg/mL
Oc1cc(C(O)CCc2ccc(Cl)cc2)ccc1Oc1ccccc1	Clinical isolate	-	MDR	-	-	MIC	resazurin	>12.5 µg/mL
C[C@@H]1[C@H]2C[C@@H](C[C@H]1NCCNC1CCCCCCC1)C2(C)C	-	-	-	-	-	MIC	-	12.5 µg/mL
CC(=O)NNc1nc(C)cc(=O)[nH]1	H37Rv	-	-	-	-	MIC	BACTEC	≥12.5 µg/mL
Oc1[nH]c2ccc(OC(F)(F)F)cc2c1N=NC(=S)Nc1ccc(Cl)cc1	H37Rv	-	-	-	-	EC90	broth dilution / resazurin	1.521 µg/mL
C/C(=C\CO)CCC[C@H](C)CCC[C@H](C)CCCC(C)C	H37Rv	-	-	-	-	MIC	-	2 µg/mL